Compound potency records, mixed from different reports. Data source: NIAID ChemDB in PubChem.

Common to all: enzyme or target tests; organism: HIV-1; protein: Integrase; endpoint: IC50

Two numbers with a dash give a range or band.

O=C(Nc1ccccc1)c1c(O)c2ncccc2oc1=O ; read by: strand transfer ; result: >300 µM
CCN(CC)CCCC(C)Nc1ccnc2ccccc12 ; read by: 3′ processing ; result: >300 µM
O=c1oc2cccnc2c(O)c1C(=S)NCc1ccc(F)cc1 ; read by: strand transfer ; result: >300 µM
CC(=O)Oc1ccc(/C=C/C(=O)Nc2cccc3c(S(=O)(=O)NCCc4ccccc4)cccc23)cc1OC(C)=O ; result: 11.9 µg/mL
CC/C=C\C=C\CO[C@@H]1O[C@H](C)[C@@H](O)[C@H](O)[C@H]1O ; read by: strand transfer / absorbance ; result: >100 µM
CC1(C)OCCn2c1nc(C(=O)NCc1cc(F)ccc1Cl)c(O)c2=O ; read by: strand transfer ; result: 0.02–0.1 µM
CCN(CC)CCCC(C)Nc1ccnc2cc(Cl)ccc12 ; read by: strand transfer ; result: 24.5 µM
O=C1c2c(O)c(=O)c(-c3nccs3)cn2CCN1Cc1ccccc1F ; read by: ELISA ; result: 0.1–1 µM
NCCC1C=Nc2ccccc21 ; result: 6.47 µM
COC(=O)C(CCCCNC(=O)c1ccc(O)c(O)c1)NC(=O)c1ccc(O)c(O)c1 ; read by: 3′ processing ; result: >10 µM
O=C(Nc1cn2ccn(Cc3cccc(Cl)c3)c(=O)c2c(O)c1=O)c1ccccn1 ; read by: ELISA ; result: <0.01 µM
Cc1ccc(NS(=O)(=O)c2cccc3c(NC(=O)/C=C/c4ccc(O)c(O)c4)cccc23)cc1 ; result: >100 µg/mL
CN(C)C(=O)c1cn2ccn(Cc3cccc(Cl)c3)c(=O)c2c(O)c1=O ; read by: ELISA ; result: 0.01–0.1 µM
O=C(NCc1ccc(F)cc1)C1C(=O)N(O)C(=O)c2ccccc21 ; read by: 3′ processing ; result: 0.066 µM
O=C1NC(=O)C(c2ccc(C(=O)O)o2)=C1c1ccc(C(=O)O)o1 ; read by: 3′ processing ; result: 116 µM
COC1NC(=O)/C(=C(\O)[C@@H]2C3C(C=C(C)[C@H]2C[C@H]2OC4(CC[C@H](C)[C@@H](c5cc(O)cc(O)c5)O4)[C@@H](C)C[C@@H]2C)CC[C@@H](O)[C@@H]3C)C1=O ; read by: strand transfer ; result: 6.1 µM
O=C(NCc1ccc(O)c(O)c1)c1ccc2ccc(C(=O)O)c(O)c2n1 ; result: <50 µM
Cc1cccnc1CN(C)Cc1nc2nccc(N3CCN(C)CC3)c2[nH]1 ; read by: AlphaScreen ; result: 0.56 µM
O=c1ccn2ccn(CCCc3ccc(Cl)cc3)c(=O)c2c1O ; read by: ELISA ; result: 0.01–0.1 µM
CCN(CC)CCCC(C)Nc1cncc2ccccc12 ; read by: strand transfer ; result: >300 µM
Nc1ncnc2c1ncn2[C@@H]1CO[C@H](COP(=O)(O)O)C1 ; read by: strand transfer ; result: >200 µM
COc1cccc(-c2cn3ccn(Cc4cccc(Cl)c4)c(=O)c3c(O)c2=O)c1 ; read by: ELISA ; result: 0.01–0.1 µM
O=C(OCC1OC(OC2Cc3c(O)cc(O)cc3OC2c2cc(O)c(O)c(O)c2)C(O)C(O)C1O)c1cc(O)c(O)c(O)c1 ; result: 2.66 µM
COc1cc(NC(C)CCCN)c2ncccc2c1 ; read by: strand transfer ; result: 11.1 µM
COC(=O)C(CNC(=O)/C=C/c1ccc(O)c(O)c1)NC(=O)/C=C/c1ccc(O)c(O)c1 ; read by: 3′ processing ; result: 1.95 µM
O=C(NCc1ccccc1)c1c(O)c2ncccc2oc1=O ; read by: strand transfer ; result: 15.9 µM
CC(=O)Oc1ccc(/C=C/C(=O)Nc2cccc3c(S(=O)(=O)NCCc4ccc(F)cc4)cccc23)cc1OC(C)=O ; result: 24.6 µg/mL
Cc1cn([C@H]2C[C@H](O)[C@@H](COP(=O)(O)O[C@H]3[C@H](n4cnc5c(N)ncnc54)CO[C@@H]3COP(=O)(O)O)O2)c(=O)[nH]c1=O ; read by: 3′ processing ; result: 150 µM
CC/C=C\CCO[C@H]1O[C@@H](C)[C@H](O)[C@@H](O)[C@H]1O ; read by: strand transfer / absorbance ; result: 21 µM
COc1cccc2c1c(/C(O)=C\C(=O)C(=O)O)cn2Cc1ccccc1F ; strain or isolate: IIIB ; read by: 3′ processing / AlphaScreen ; result: 1.8 µM
Cc1cccc(NS(=O)(=O)c2cccc3c(NC(=O)/C=C/c4ccc(O)c(O)c4)cccc23)c1C ; result: 19.8 µg/mL
COc1cccc2c1c(/C(O)=C/C(=O)C(=O)O)cn2Cc1ccc(F)cc1.COc1cccc2c1c(/C(O)=C/C(=O)C(=O)O)cn2Cc1ccc(F)cc1.[Mg+2].[Mg+2] ; strain or isolate: IIIB ; read by: strand transfer / AlphaScreen ; result: 0.08 µM
CC/C=C\C=C\CO[C@@H]1O[C@H](CO)[C@@H](O)[C@H](O)[C@H]1O ; read by: strand transfer / absorbance ; result: 21 µM
CC(C)c1c(Cc2ccccc2)n(COCc2ccccc2)c(=O)n(N)c1=O ; read by: 3′ processing ; result: >111 µM
O=C(/C=C/c1ccc(O)c(O)c1)Nc1cccc2c(S(=O)(=O)Nc3ccc(F)cc3)cccc12 ; result: 7.9 µg/mL
O=C1O[C@H]2[C@@H]3OC(=O)c4cc(O)c(O)c(O)c4-c4c(cc(O)c(O)c4O)C(=O)OC[C@H]2O[C@@H](OC(=O)c2cc(O)c(O)c(O)c2)[C@@H]3OC(=O)c2cc(O)c(O)c3c2[C@@H]2C1=CC(=O)[C@](O)(O3)C2(O)O ; read by: strand transfer ; result: 0.16 µg/mL
COc1cccc2c1c(/C(O)=C\C(=O)C(=O)O)cn2Cc1ccc(F)cc1 ; strain or isolate: IIIB ; read by: 3′ processing / AlphaScreen ; result: 2.1 µM
C=C(C=O)[C@@H]1C[C@@]2(C)C(=CC1=O)[C@H](OC(=O)/C(C)=C\C(C)CCCC)CC[C@@H]2C(=O)O ; read by: strand transfer ; result: 10 µM
O=C1c2c(O)c(=O)ccn2C2(CCCC2)CN1Cc1ccc(Cl)c(Cl)c1 ; read by: ELISA ; result: 0.01–0.1 µM
CC(=O)Oc1cc(OC(C)=O)cc(Oc2c(OC(C)=O)cc3c(c2OC(C)=O)Oc2cc(Oc4c(OC(C)=O)cc(OC(C)=O)cc4OC(C)=O)c(OC(C)=O)c(OC(C)=O)c2O3)c1 ; read by: 3′ processing ; result: >100 µM
O=C(O)c1ccc(C2=C(c3ccc(C(=O)O)o3)C(=O)N(c3ccc(O)cc3)C2=O)o1 ; read by: strand transfer ; result: 3 µM
CCNC(=O)c1cn2ccn(Cc3cccc(Cl)c3)c(=O)c2c(O)c1=O ; read by: ELISA ; result: <0.01 µM
O=C(NCCCC(NC(=O)c1ccc(O)c(O)c1)C(=O)O)c1ccc(O)c(O)c1 ; read by: 3′ processing ; result: >10 µM
O=c1oc2cccnc2c(O)c1C(=S)NCc1ccccc1 ; read by: strand transfer ; result: >300 µM
CCN(CC)CCCC(C)Nc1cncc2cc(OC)ccc12 ; read by: strand transfer ; result: >300 µM
O=C1c2c(O)c(=O)c(-c3nccs3)cn2CCN1CCCc1cccc(Cl)c1F ; read by: ELISA ; result: 0.01–0.1 µM
Cc1ncc(COP(=O)(O)O)c(C=O)c1O ; read by: 3′ processing ; result: 25 µM
COC1(O)C(=O)c2c(O)cc(C)c3c4c(c(O)c(c23)C1=O)C(C)(C)C(C)O4 ; read by: strand transfer ; result: 19 µM
Cc1ccccc1NS(=O)(=O)c1cccc2c(NC(=O)/C=C/c3ccc(O)c(O)c3)cccc12 ; result: 20.4 µg/mL

For reference, 5 entries again:

SMILES,strain or isolate,read by,result
O=C1O[C@H]2[C@@H]3OC(=O)c4cc(O)c(O)c(O)c4-c4c(cc(O)c(O)c4O)C(=O)OC[C@H]2O[C@@H](OC(=O)c2cc(O)c(O)c(O)c2)[C@@H]3OC(=O)c2cc(O)c(O)c3c2[C@@H]2C1=CC(=O)[C@](O)(O3)C2(O)O,-,strand transfer,0.16 µg/mL
O=C(O)c1ccc(C2=C(c3ccc(C(=O)O)o3)C(=O)N(c3ccc(O)cc3)C2=O)o1,-,strand transfer,3 µM
CC/C=C\CCO[C@H]1O[C@@H](C)[C@H](O)[C@@H](O)[C@H]1O,-,strand transfer / absorbance,21 µM
COc1cccc(-c2cn3ccn(Cc4cccc(Cl)c4)c(=O)c3c(O)c2=O)c1,-,ELISA,0.01–0.1 µM
CN(C)C(=O)c1cn2ccn(Cc3cccc(Cl)c3)c(=O)c2c(O)c1=O,-,ELISA,0.01–0.1 µM

ICn is the concentration giving n% inhibition. Rows are shuffled and stem from different studies. An empty or dashed field is not shown.